Pooled drug test results. Numbers come from NIAID ChemDB, via PubChem.

Shared fields: growth or infection tests; organism: HIV-1; endpoint: EC50

Lines come from different laboratories, so protocols vary. ECn: concentration that inhibits the pathogen or its effect by n%. Blank or dashed fields: not listed here.

smiles	read by	mutations	cell line	strain	value
CC(C)(C)[Si](C)(C)OCC1O[C@@H](NC(=O)NC(=O)c2ccccc2)C(O[Si](C)(C)C(C)(C)C)C12OS(=O)(=O)C=C2N	syncytia		CEM	IIIB	≥10 µM
CCSCC1=C(C(=O)Nc2ccc(Cl)c(C(=O)OC(C)C)c2)SCCO1	syncytia	RT-E138K	CEM	TSAO-resistant (RT E138K)	4.5 µg/mL
COc1cc([C@@H]2Oc3cc([C@H]4Oc5cc(O)cc(O)c5C(=O)[C@@H]4O)ccc3O[C@H]2COP(=O)(O)OC[C@H]2O[C@@H](O[C@H]3[C@H](O)[C@@H](O)[C@@H](OC)O[C@@H]3CO)[C@H](O)[C@@H](O)[C@H]2O)ccc1O	MTT		MT-4	IIIB	>130 µM
CCCC1=C(C(=O)Nc2ccc(Cl)c(C(=O)OCC)c2)SCCO1	syncytia	RT-V106A	CEM	Nevirapine-resistant (RT V106A)	>10 µg/mL
Cc1nnc(SCC(=O)Nc2ccccc2Br)n1-c1cccc2cccnc12	luciferase	RT-Y188L	HeLa + HeLa-JC53	NL4-3	4.2 µM
COc1cc([C@@H]2Oc3cc([C@H]4Oc5cc(O)cc(O)c5C(=O)[C@@H]4O)ccc3O[C@H]2COP(=O)(O)OC[C@H]2O[C@H](OC)[C@H](O)[C@@H](O)[C@@H]2O)ccc1O	MTT		MT-4	IIIB	>160 µM
CC1=C(C(=O)Nc2ccc(Cl)c(C(=O)OCC3CCC3)c2)SCCO1	syncytia		CEM	IIIB	0.085 µg/mL
CC(C)C1=C2[C@H]3CC[C@@H]4[C@@]5(C)CC[C@H](OC(=O)[C@H]6C[C@@H](C(=O)O)C6(C)C)C(C)(C)[C@@H]5CC[C@@]4(C)[C@]3(C)CC[C@@]2(CCNC(=O)c2ccc(N)nc2)CC1=O	p24 / ELISA		MT-2	92HT599	<1 µM
COc1cc([C@@H]2Oc3cc([C@H]4Oc5cc(O)cc(O)c5C(=O)[C@@H]4O)ccc3O[C@H]2COC[C@H]2O[C@H](OC)[C@@H](O)[C@@H](O)[C@@H]2O)ccc1O	MTT		MT-4	IIIB	>160 µM
CCCC1=C(C(=O)Nc2ccc(Cl)c(C(=O)OC)c2)SCCO1	syncytia	RT-E138K	CEM	TSAO-resistant (RT E138K)	>10 µg/mL
CC(C)C1=C2[C@H]3CC[C@@H]4[C@@]5(C)CC[C@H](OC(=O)[C@H]6C[C@@H](C(=O)O)C6(C)C)C(C)(C)[C@@H]5CC[C@@]4(C)[C@]3(C)CC[C@@]2(CC(=O)NCC(C)(C)NC(=O)c2ccc(N)nc2)CC1=O	p24 / ELISA		MT-2	92HT599	<1 µM
CC1=C(C(=O)Nc2cc(C(=O)OC(C)C)c(C)cc2F)SCCO1	syncytia		CEM	IIIB	2.3 µg/mL
Cc1nnc(SCC(=O)Nc2ccccc2Br)n1-c1ccc(N(C)C)c2ccccc12	luciferase	RT-Y188L	HeLa + HeLa-JC53	NL4-3	0.24 µM
Nc1nc(=O)n([C@H]2O[C@@H](CO)CC2(F)F)cc1F			PBMC	LAV	>100 µM
CC1=C(C(=O)Nc2cc(C(=O)OC(C)C)c(Cl)cc2F)SCCO1	syncytia		CEM	IIIB	0.65 µg/mL
[2H]C(CCCN)(CNCC[C@@]12CC[C@]3(C)[C@H](CC[C@@H]4[C@@]5(C)CC[C@H](OC(=O)[C@H]6C[C@@H](C(=O)O)C6(C)C)C(C)(C)[C@@H]5CC[C@]43C)C1=C(C(C)C)C(=O)C2)NC(=O)c1ccc(Cl)cc1	p24 / ELISA		MT-2	92HT599	<1 µM
CN[C@H](CC(C)C)C(=O)N[C@H]1C(=O)N[C@@H](CC(N)=O)C(=O)N[C@H]2C(=O)N[C@H]3C(=O)N[C@H](C(=O)N[C@H](C(=O)O)c4cc(O)c(CNCc5ccc(-c6ccc(Cl)cc6)cc5)c(O)c4-c4cc3ccc4O)[C@H](O[C@H]3C[C@](C)(N)[C@@H](O)[C@H](C)O3)c3ccc(cc3)Oc3cc2cc(c3OC2O[C@H](CO)[C@@H](O)[C@H](O)[C@H]2O[C@H]2C[C@](C)(N)[C@@H](O)[C@H](C)O2)Oc2ccc(cc2Cl)[C@H]1O	syncytia		CEM	IIIB	>22 µM
Nc1ncnc2c1ncn2[C@H]1O[C@@H](CO)CC1(F)F			PBMC	LAV	>100 µM
CC(C)C1=C2[C@H]3CC[C@@H]4[C@@]5(C)CC[C@H](OC(=O)[C@H]6C[C@@H](C(=O)O)C6(C)C)C(C)(C)[C@@H]5CC[C@@]4(C)[C@]3(C)CC[C@@]2([C@@H](O)CNC(=O)C(F)(CN)NC(=O)c2ccc(Cl)cc2)CC1=O	p24 / ELISA		MT-2	92HT599	<1 µM
CC1=C(C(=O)Nc2ccc(Cl)c(C(=O)OC3CCCC3)c2)SCCO1	syncytia	RT-L100I	CEM	TIBO-resistant (RT L100I)	2.5 µg/mL
Cc1nnc(SCC(=O)Nc2ccc(S(N)(=O)=O)cc2Cl)n1-c1ccc(N(C)C)c2ccccc12	luciferase	RT-Y188L	HeLa + HeLa-JC53	NL4-3	0.088 µM
O=c1[nH]c(=O)n([C@H]2O[C@@H](CO)CC2(F)F)cc1I			PBMC	LAV	>100 µM
CC1=C(C(=O)Nc2ccc(Cl)c(C(=O)OC3CCCCC3C)c2)SCCO1	syncytia	RT-Y181C	CEM	PYR-resistant (RT Y181C)	1.3 µg/mL
COCc1nnc(SCC(=O)Nc2ccc(C)cc2Br)n1-c1ccc(C)cc1	luciferase	RT-K103N Y181C	HeLa + HeLa-JC53	NL4-3	>10 µM
CC(C)C1=C2[C@H]3CC[C@@H]4[C@@]5(C)CC[C@H](OC(=O)[C@H]6C[C@@H](C(=O)O)C6(C)C)C(C)(C)[C@@H]5CC[C@@]4(C)[C@]3(C)CC[C@@]2(CCNCC2(NC(=O)c3ccc(Cl)cc3)CNC2)CC1=O	p24 / ELISA		MT-2	92HT599	<1 µM
Cc1ccc2c(C)cc(C)c(-n3c(SCC(=O)Nc4ccc(S(N)(=O)=O)cc4Cl)nnc3C(F)(F)F)c2n1	luciferase	RT-Y188L	HeLa + HeLa-JC53	NL4-3	0.004 µM
CC(C)Cc1cc(-c2ccc(-c3ccc(CCC(=O)O)cc3CC(C)C)cc2C(C)C)ccc1OCC(=O)O					15.7 µg/mL
CC(C)C1=C2[C@H]3CC[C@@H]4[C@@]5(C)CC[C@H](OC(=O)[C@H]6C[C@@H](C(=O)O)C6(C)C)C(C)(C)[C@@H]5CC[C@@]4(C)[C@]3(C)CC[C@@]2([C@@H](O)CNCC(C)(C)NC(=O)c2ccc(N3CCC(O)CC3)cc2)CC1=O	p24 / ELISA		MT-2	92HT599	<1 µM
Cc1ccc(-n2c(SCC(=O)Nc3ccc(C)cc3Br)nnc2C(F)(F)F)cc1	luciferase	RT-K103N Y181C	HeLa + HeLa-JC53	NL4-3	1.1 µM

Repeating the final 4 entries:

smiles,read by,mutations,cell line,strain,value
Cc1ccc2c(C)cc(C)c(-n3c(SCC(=O)Nc4ccc(S(N)(=O)=O)cc4Cl)nnc3C(F)(F)F)c2n1,luciferase,RT-Y188L,HeLa + HeLa-JC53,NL4-3,0.004 µM
CC(C)Cc1cc(-c2ccc(-c3ccc(CCC(=O)O)cc3CC(C)C)cc2C(C)C)ccc1OCC(=O)O,,,,,15.7 µg/mL
CC(C)C1=C2[C@H]3CC[C@@H]4[C@@]5(C)CC[C@H](OC(=O)[C@H]6C[C@@H](C(=O)O)C6(C)C)C(C)(C)[C@@H]5CC[C@@]4(C)[C@]3(C)CC[C@@]2([C@@H](O)CNCC(C)(C)NC(=O)c2ccc(N3CCC(O)CC3)cc2)CC1=O,p24 / ELISA,,MT-2,92HT599,<1 µM
Cc1ccc(-n2c(SCC(=O)Nc3ccc(C)cc3Br)nnc2C(F)(F)F)cc1,luciferase,RT-K103N Y181C,HeLa + HeLa-JC53,NL4-3,1.1 µM